{"source": "paper PMC4801485", "origin": "cited, not measured here", "target": "HIV capsid protein capsid domain (Human immunodeficiency virus 1) (UniProt O93182)", "note": "pKd: −log10 of the molar value."}
{"substance": "Cyclophilin A (from UniProt P62937)", "values": [{"measurement": "pKd", "result": 4.80}]}
